Experimental data from article PMC9477884 (Communications Biology, 2022).

Molecular target: the molecule itself

## MKTAISLPDETFDRVSRRASELGMSRSEFFTKAAQRYLHELDAQLLTGQ (domain or fragment) [nMazE6, C-terminal deletion mutant of MazE6 (residue 1-49)]
  stoichiometry N: 2
